From patent publication US10300071B2, “Compositions and methods for inhibition of mycobacteria” (priority 2014, dated 2019)

Columns and labels:
[1] = test system: human fibroblast
[2] = test system: S. cerevisiae

Compound	concentrations at which not toxic, human fibroblast cytotoxicity [1]	concentrations at which not toxic, s. cerevisiae cytotoxicity [2]
CC(C)NC(=O)Nc1ccc(Oc2nc3ccc([N+](=O)[O-])cc3s2)cc1 [NZ-363, 1-{4-[(6-nitro-1,3-benzothiazol-2-yl)oxy]phenyl}-3-(propan-2-yl)urea]	≥ 100 µM	≥ 100 µM
CC(C)NC(=O)Nc1ccc(Oc2cnc3cc(Cl)ccc3n2)cc1 [NZ-322, 1-{4-[(6-chloroquinoxalin-2-yl)oxy]phenyl}-3-(propan-2-yl)urea]	≥ 100 µM	≥ 100 µM
COC(=O)C(C)c1ccc(Oc2nc3ccc(Cl)cc3s2)cc1 (stereo not drawn) [NZ-311, methyl 2-{4-[(6-chloro-1,3-benzothiazol-2-yl)oxy]phenyl}propanoate]	≥ 100 µM	≥ 100 µM
O=C1NCCN1c1ccc(Oc2nc3ccc(Cl)cc3s2)cc1 [NZ-341, 1-{4-[(6-chloro-1,3-benzothiazol-2-yl)oxy]phenyl}imidazolidin-2-one]	≥ 100 µM	–
CONC(=O)[C@@H](C)Oc1ccc(Oc2nc3ccc(Cl)cc3o2)cc1 [NZ-296, (2R)-2-{4-[(6-chloro-1,3-benzoxazol-2-yl)oxy]phenoxy}-N-methoxypropanamide]	≥ 100 µM	≥ 100 µM
CONC(=O)[C@@H](C)Oc1ccc(Oc2nc3ccc(F)cc3s2)cc1 [NZ-289, (2R)-2-{4-[(6-fluoro-1,3-benzothiazol-2-yl)oxy]phenoxy}-N-methoxypropanamide]	≥ 100 µM	≥ 100 µM
CNC(=O)Nc1ccc(Oc2cnc3cc(Cl)ccc3n2)cc1 [NZ-342, 1-{4-[(6-chloroquinoxalin-2-yl)oxy]phenyl}-3-methylurea]	≥ 100 µM	–
